Assay results as given in the supplement of paper PMC9931576.
Human monoclonal antibodies against the spike receptor-binding domain (heavy:light variable regions). IC50 against pseudoviruses bearing the spike of naturally observed variants; lower = stronger; >10 µg/ml means not reached at the top dose. No active / inactive call. The stated detection limit is 0.0005 µg/ml; values near or below 0.001 µg/ml lie at the floor of the assay.

B1: DH1044 (protein)
chain 1: QVQLVESGGGVVQPGRSLRLSCAASGFTFSSYGMHWVRQAPGKGLEWVAVISFDGSNKYYVDSVKGRFTISRDNSKNTLYLQMNSLRAEDTAVYYCAKDMHNDYGDYVSYYFYYGMDVWGQGTTVTVSS
chain 2: QSVLTQPPSVSAAPGQKVIISCSGSSSNIGNNYVSWYQQLPGTAPKLLIYENNKRPSGIPDRFSGSKSGTSATLGITGLQTGDEADYYCGTWDSSLRTDVFGGGTKLIVL
B2: BD56-149 (protein)
chain 1: EVQLVQSGAEVKKPGESLKISCKGSGYTFISYWIAWVRQTPGKGLEWMGIIYPGDSETRYSPSFQGQATISVDKSIRTAYLQWSNLKASDTAMYFCARHADPHYYYDGSGVFDSWGQGTMVTVSS
chain 2: SFELTQPPSVSVSPGQTASITCSGDKLGNNYASWYQQRPGQSPVVVIYEDTKRPSGIPERFAGSNSGNTATLTISETQAMDEADYYCQAWDSGTYVLFGGGTKLTVL
B3: BD56-153 (protein)
chain 1: QVQPVQSGAEVKKPGSSVKVSCKASGGTFSSYAITWVRQAPGHGLEWLGGIIPIFGPPNYAQKFQGRVTITADVSTSTAYMELSSLRSEDTAVYFCARGHYYDSTEGGIWFDSWGQGTLVTVSS
chain 2: QSALTQPASVSGSPGQSITISCTGTSSDVGGYHYVSWYQQHPGKAPKLMIYDVSHRSSGVSSRFSGSKSGNTASLTISGLQAEDEAHYYCTSYATSSTLLFGGGTKVTVL
B4: BD56-154 (protein)
chain 1: QVQLQESGPGLVKPSETLSLSCTVSGGSTSSNTSYWGWIRQPPGKGLEWIAIIDYRGSTYYSPSLKSRVTMSVDTSKNQISLKLSSVTAADTAVYYCARGIAASSTDDYYYYYGMDVWGQGTTVTVSS
chain 2: SYELTQPPSVSVSPGQSAKITCSGDSFPKQYAYWYQQKPGQAPVLVIYKDNERPSGIPERFSGSSSGTTVTLTISGVQAEDDADYYCHSADSTHTFWVFGGGTKLTVL
B5: BD56-156 (protein)
chain 1: EVQLVESGGGLVQPGGSLRLSCAASGFTFSNYDMHWVRQRPGKGLEWVSTIGTGGDTYYPGSVKGRFTISRENAKKSLFLQMNSLRAGDTAVYYCARVAYYSDSSPYQYWYFDLWGRGTLVTVSS
chain 2: DIQVTQSPSSLSASVGDRVTITCRASHNIRSYLNWYQQKPGKAPKLLIYAASTLQSGVPSRFSGSGSGTDFTLAITGLQPEDFATYYCQQSYSAPPWTFGQGTKVDIK
B6: BD56-164 (protein)
chain 1: EVQLVESGGGLVQPGGSLRLSCAASGFTFSSYWMTWVRQAPGKGLEWVANIKQDGSDKYYVDSVKGRFTISRDNAKNSLYLQMNSLRAEDTAVYYCARDTYFYDSSAYFINWFDPWGQGTLVTVSS
chain 2: QSVLTQPPSVSGAPGQRVTISCTGSTSNIGAGYDVHWYQQLPGTAPKLLIYNNNNRPSGVPDRFSGSKSGTSASLAITGLQAEDEADYYCQSSDSSLSTSYVFGTGTKVTVL
B7: BD56-165 (protein)
chain 1: EVQLVESGGGWVQRGGSLRLSCAASGFTYSSYSLNWVRQAPGKGLEWVSSISPSSDIKYYADSVKGRFTISRDNARNSLYLQMNSLRDEDTAVYFCARDSKTYTSGPSAEWFDPWGQGTLVTVSS
chain 2: SYVLTQPPSVSVAPGKTARITCGGDSIGSKSVHWYQQKPGQAPIVVIYYDSDRPSGIPERFSGSNSGNTATLAISRVEAGDEADYYCQVWDTGVVFGGGTKLTVL
B8: BD56-168 (protein)
chain 1: QVQLVQSGAEVKKPGASVKVSCKASGYTFTSYGISWVRQAPGQGLEWMGWINTYNANTNYAQKFQDRVTLTTDTSTNTVYMELRSLRSDDTAVYYCARVEGFYSDSSVYFFDYWGQGILVTVSS
chain 2: EIVMTQSPATLSVSPGERATLSCRASQSVSTNVGWYQQKPGQAPRLLIYAASTRATGVPARFSGSGSGTEFTLTISSLQSEDFAVYYCQQYDNWPPSWTFGQGTKVEIK
B9: BD56-170 (protein)
chain 1: QVQLVESGGGVVQPGRSLRLSCAASGFTFNTYGMHWVRQAPGKGLEWVTLIWYDGSNKYYADSVKGRFTISRDNSKNTLYLQMNTLRAEDTAIYYCARDQASYHTVAGTSPYFDYWGQGTLVTVSS
chain 2: SYELTQPPSVSVSPGQTARITCSRDTLPKQYASWYQQKPGQAPVLVIYKDSERPSGIPERFSGSSSGTTVTLTISGVQAEDEADYYCQSTDSSATYAVFGGGTQLTVL
B10: BD56-171 (protein)
chain 1: QVQVVESGGGVVQPGRSLRLSCAASGFTFSSYAMHWVRQAPGKGLEWVAVVLYDGSNKYYADSVQGRFTISRDNSRNALFLQMNSLRAEDTAVYYCARDRSPQQLLDDYYYYYGMDVWGQGTTVTVSS
chain 2: SYELTQPPSVSVSPGQTASITCSGPKLGDKYACWYQQKPGQSPVLIIYQDDRRPSGIPERFSGSNSGNTATLTISGTQTMDEADYFCQAWDSSTPYVFGTGTKVTVL
B11: BD56-175 (protein)
chain 1: EVQLVQSGAEVKKPGESLRISCKGSGYSFTSSWIGWVRQMPGKGLEWMGIIYPHDSDTRYSPSFQGQVTISADKAISTAYLQWSSLKASDTAMYYCARDPGGCSSGSCYGLDVWGQGTTVTVSS
chain 2: QSVLTQPPSASGTPGQRVTISCSGSSSNIGSHAVNWYRQLPGTAPILLLYNNNQRPSGVPDRFSGSKSGTLASLAISGLQSEDEADYYCAAWDDSLIGSYVFGTGTKVTAL
B12: BD56-180 (protein)
chain 1: EVQLVESGGGLVQPGRSLRLSCTGSGFIFGVYAVSWVRQAPGKGLEWVGFIRSKAYGGAIEYAASVKGRFTISRDDSKNIAYLQMNSLKTEDTAVYYCVRVDQWLSSPQTHGDFFDYWGQGTLVTVSS
chain 2: QSALTQPASVSGSPGQSITISCTGTSSDVGGYDYVSWYQQHPGKAPKLLIYDVTNRPSGVSNRFSGSKSGSTASLTISGLQAEDEAEYYCSSYRTSTIFVFGSGTKVTVL

Tests used:
Experiment in all cases: pseudovirus neutralization IC50; higher = weaker neutralization
[1] = target: SARS-CoV-2 Omicron BA.1 spike pseudovirus
Method: (§1)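 Single-round VSV luciferase pseudovirus mixed with antibody dilutions for 1 h and put on Huh-7 cells for about a day; IC50 from the dose curve.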

[2] = target: SARS-CoV-2 Omicron BA.2 spike pseudovirus
Method: as §1

[3] = target: SARS-CoV-2 Omicron BA.2.75 spike pseudovirus
Method: as §1

[4] = target: SARS-CoV-2 Omicron BA.5 spike pseudovirus
Method: as §1

[5] = target: SARS-CoV-2 Omicron BQ.1.1 spike pseudovirus
Method: as §1

[6] = target: SARS-CoV-2 Omicron XBB spike pseudovirus
Method: as §1

[7] = target: SARS-CoV-2 early D614G spike pseudovirus
Method: as §1

| Binder | pseudovirus neutralization IC50 [1] [µg/mL] | pseudovirus neutralization IC50 [2] [µg/mL] | pseudovirus neutralization IC50 [3] [µg/mL] | pseudovirus neutralization IC50 [4] [µg/mL] | pseudovirus neutralization IC50 [5] [µg/mL] | pseudovirus neutralization IC50 [6] [µg/mL] | pseudovirus neutralization IC50 [7] [µg/mL] |
| --- | --- | --- | --- | --- | --- | --- | --- |
| B1 | 0.085 | 0.075 | 0.0819 | > 10 | > 10 | > 10 | 0.0827 |
| B2 | 0.195 | 0.374 | 0.211 | 0.299 | 5.73 | 2.74 | 0.371 |
| B3 | 7.05 | 6.99 | 7.63 | 7.91 | > 10 | > 10 | 6.53 |
| B4 | 0.716 | 0.846 | 0.755 | 0.725 | 0.56 | 1.92 | 1.67 |
| B5 | > 10 | > 10 | > 10 | > 10 | > 10 | > 10 | > 10 |
| B6 | > 10 | > 10 | > 10 | > 10 | > 10 | > 10 | > 10 |
| B7 | > 10 | > 10 | > 10 | > 10 | > 10 | > 10 | > 10 |
| B8 | 3.12 | 3.56 | 4.69 | 2.9 | 2.46 | 3.57 | > 10 |
| B9 | 1.72 | 2.45 | 2.7 | 2.52 | 2.43 | 3.06 | 2.36 |
| B10 | 0.97 | 1.09 | 0.904 | 0.824 | 0.786 | 1.14 | 0.98 |
| B11 | 3.97 | 2.56 | 4.23 | 3.94 | 6.33 | 7.52 | > 10 |
| B12 | > 10 | > 10 | > 10 | > 10 | > 10 | > 10 | > 10 |
